Laboratory results reported in patent publication US20070161078A1.

Target: MBP.NS1 H3N2 (RSKV) (influenza A H3N2) (UniProt Q67253)
Assay: G assay titration

| Substance | EC50 [mg/L] |
| --- | --- |
| PSD95 d1,2,3 (from UniProt P78352 59-402) | 25 |
| DLG1 d1,2 (from UniProt Q12959 218-410) | 20.8 |
